Assay results published in patent publication US20110039758A1 (published 2011).

Molecular target: T1, Maltose Binding Protein (MBP) fused to […] of nNOS
T1 construct: range […]; also called MBP-nNOS; internal PL of nNOS
Test: G assay with MBP-nNOS, anti-MBP-HRP, FIG. 11

B1: GST-PSD95 PDZ domain 2 (other)
chain: MSPILGYWKIKGLVQPTRLLLEYLEEKYEEHLYERDEGDKWRNKKFELGLEFPNLPYYIDGDVKLTQSMAIIRYIADKHNMLGGCPKERAEISMLEGAVLDIRYGVSRIAYSKDFETLKVDFLSKLPEMLKMFEDRLCHKTYLNGDHVTHPDFMLYDALDVVLYMDPMCLDAFPKLVCFKKRIEAIPQIDKYLKSSKYIAWPLQGWQATFGGGDHPPKSDLIEGRHVMRRKPPAEKVMEIKLIKGPKGLGFSIAGGVGNQHIPGDNSIYVTKIIEGGAAHKDGRLQIGDKILAVNSVGLEDVMHEDAVAALKNTYDVVYLKVAKPSNAYL
notes: also called PSD95 d2; PSD-95 d2
binding result: binds
